# Reference: article PMC8445433, “Broadly directed SARS-CoV-2-specific CD4+ T cell response includes frequently detected peptide specificities within the membrane and nucleoprotein in patients with acute and resolved COVID-19” (PLoS Pathogens, 2021)
# Chains of the proteins cited; added tags and fusions are not shown. Residues count along the entry.
# UniProt P79483, 30-266 R40L/Y55F/D57E/Y59H/F66Y/L67A/T80R/V86D/S89Y/R103Q/A212P/R218S limits assumed: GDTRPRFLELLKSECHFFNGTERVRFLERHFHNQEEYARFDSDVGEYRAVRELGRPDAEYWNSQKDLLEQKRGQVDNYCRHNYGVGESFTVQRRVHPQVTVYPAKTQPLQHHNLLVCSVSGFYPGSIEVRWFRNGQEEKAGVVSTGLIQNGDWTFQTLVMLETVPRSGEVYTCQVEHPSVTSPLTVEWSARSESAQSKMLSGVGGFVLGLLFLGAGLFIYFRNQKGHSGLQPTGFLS
# Tests used:
# Test in all cases: biochemical
# DRB1*01:01 = DRB1*01:01 (Homo sapiens, UniProt P01903+P01911, A100R/D57E/F55L/F60I/F76Y/I96L/L162R/M171V/P40L/Q125E/R42F/V115G/Y59C); assay type: binding
# DRB1*04:01 = DRB1*04:01 (Homo sapiens, UniProt P01903+P01911, A100K/A169T/F76Y/I96L/K127E/L162R/M171V/N62H/P40V/Q125Y/R42H/S133A/S149N/S66Y/V115G/V209L/W38E); assay type: binding
# DRB1*07:01 = DRB1*07:01 (Homo sapiens, UniProt P01903+P01911, A100R/A102G/A103Q/D57E/D86V/E43K/F76Y/K127E/L162R/M171V/P40G/Q125H/Q99D/R33Q/R42Y/R54Q/S133A/S66F/T210M/V115G/Y107V/Y59L/Y89S); assay type: binding
# HLA-DRB1*11:01 = HLA-DRB1*11:01 (Homo sapiens, UniProt P01903+P01911, A100R/A169T/A87E/I96F/K41T/L162R/M171V/P40S/Q125H/Q178H/Q39Y/Q99D/R42S/S66Y/T262R/V115G/W38E); assay type: binding
# DQA1*03:01 DQB1*03:02 = DQA1*03:01 DQB1*03:02 (Homo sapiens, UniProt P01909+P01920, A209T/A45G/C70Q/D89A/DUP78-78/E183D/E77G/F237L/G63E/H199R/I129T/K197E/L178F/L74F/L98V/Q57E/Q76R/S185I/S97I/T217I/T49S/V73L/Y58L); assay type: binding
# DQA1*01:01 DQB1*05:01 = DQA1*01:01 DQB1*05:01 (Homo sapiens, UniProt P01909+P01920, A157S/A45G/A70V/C70R/D89V/E106S/E118A/E183D/E77G/F83G/G63E/H151Q/H199R/H252R/H253Q/I129T/I235V/I88M/INS77G/K197Q/L107V/L117V/L119Y/L178F/L71W/L74F/L85Q/L91A/L98M/M46L/N214S/P87R/Q116E/Q256R/Q57E/Q76K/R102G/R240Q/R75S/R78G/S102Y/S185I/S41F/S97I/T103A/T109R/T121G/T122I/T172A/T86R/V148I/V68A/V73E/Y34C/Y58G/Y62H); assay type: binding
# DQA1*01:02 DQB1*06:02 = DQA1*01:02 DQB1*06:02 (Homo sapiens, UniProt P01909+P01920, A157G/A45G/C70R/E118A/E183D/E77G/F83G/G63E/H151Q/H199R/H252R/H253Q/I129T/I235V/I88M/INS77G/K197Q/L117V/L119F/L178F/L71W/L74F/L85Q/L91A/L98M/N214S/P87R/Q116E/Q76K/R102G/R240Q/R75S/R78G/S102Y/S185I/S41F/S97I/T121G/T122I/T172A/T86R/V229M/V68A/V73E/Y34C/Y41F/Y58L); assay type: binding
# DRB1*03:01 = DRB1*03:01 (Homo sapiens, UniProt P01903+P01911, A100K/A102G/A103R/A169T/F55Y/I96L/K41T/L162R/M171V/P40S/Q125H/Q178H/Q39Y/R42S/S66N/T106N/T262R/W38E/Y61H); assay type: binding
# DRB1*04:05 = DRB1*04:05 (Homo sapiens, UniProt P01903+P01911, A100R/A169T/D86S/F76Y/I96L/K127E/L162R/M171V/N62H/P40V/Q125Y/R42H/S133A/S149N/S66Y/V115G/V209L/W38E); assay type: binding
# DRB1*08:02 = DRB1*08:02 (Homo sapiens, UniProt P01903+P01911, A100R/A103L/A169T/F76Y/H45Y/I96F/K41T/L162R/M171V/P40S/Q125H/Q178H/Q39Y/Q99D/R218S/R42G/S66Y/V115G/W38E); assay type: binding
# DRB1*09:01 = DRB1*09:01 (Homo sapiens, UniProt P01903+P01911, A100R/A103E/D57H/D86V/F55Y/F60I/F76Y/I96F/K127E/L162R/M171V/P40D/Q125H/Q99R/R33Q/R42F/S133A/S66N/T210M/V115G/W38K/Y107V/Y59G/Y89S); assay type: binding
# DRB1*12:01 = DRB1*12:01 (Homo sapiens, UniProt P01903+P01911, A100R/A169T/D57E/D86V/F55L/H45Y/K41T/L162R/M171V/P40S/Q125H/Q178H/Q39Y/Q99D/R42G/S66L/T262R/V114A/V67L/W38E/Y59H/Y61H/Y89S); assay type: binding
# DRB1*13:02 = DRB1*13:02 (Homo sapiens, UniProt P01903+P01911, A100E/A169T/K41T/L162R/M171V/P40S/Q125H/Q178H/Q39Y/Q99D/R42S/S66N/T262R/V115G/W38E/Y61H); assay type: binding
# DRB3*02:02 = DRB3*02:02 (Homo sapiens, UniProt P01903+P79483, A212P/D57E/F66Y/L67A/R103Q/R218S/R40L/S89Y/T80R/V86D/Y55F/Y59H); assay type: binding
# DRB4*01:01 = DRB4*01:01 (Homo sapiens, UniProt P01903+P13762, G164S); assay type: binding
# DQA1*05:01 DQB1*02:01 = DQA1*05:01 DQB1*02:01 (Homo sapiens, UniProt P01909+P01920, A45G/A70V/D89A/E106A/E77G/E98D/H199R/L107V/N214S/P84L/P87L/T103K/T109R/T172A/T60S/V78E/V99I/Y58L/Y62S/Y69I/Y79F)
# [1] = read-out: IC50 DQA1*03:01 DQB1*03:02
# [2] = read-out: IC50 DQA1*01:01 DQB1*05:01
# [3] = read-out: IC50 DQA1*01:02 DQB1*06:02
Structure (SMILES),IC50 (DQA1*05:01 DQB1*02:01) [µM],IC50 (DQA1*03:01 DQB1*03:02; [1]) [µM],IC50 (DQA1*01:01 DQB1*05:01; [2]) [µM],IC50 (DQA1*01:02 DQB1*06:02; [3]) [µM],also measured
CC(C)[C@H](NC(=O)[C@H](CC(N)=O)NC(=O)[C@H](Cc1ccc(O)cc1)NC(=O)[C@H](C)NC(=O)[C@@H](N)CCCCN)C(=O)N[C@H](C(=O)N[C@@H](CCC(N)=O)C(=O)N[C@@H](C)C(=O)N[C@@H](Cc1ccccc1)C(=O)NCC(=O)N[C@@H](CCCNC(=N)N)C(=O)N[C@@H](CCCNC(=N)N)C(=O)NCC(=O)N1CCC[C@H]1C(=O)N[C@@H](CCC(=O)O)C(=O)O)[C@@H](C)O [Ncl_54],> 40,–,–,–,IC50 (DRB1*01:01): 0.012 µM; IC50 (DRB1*04:01): 0.647 µM; IC50 (DRB1*07:01): 0.029 µM; IC50 (HLA-DRB1*11:01): 0.196 µM; IC50 (DQA1*03:01 DQB1*03:02): 33.2 µM; IC50 (DQA1*01:01 DQB1*05:01): > 40 µM; IC50 (DQA1*01:02 DQB1*06:02): 2.94 µM; IC50 (DRB1*03:01): > 40 µM; IC50 (DRB1*04:05): 11.7 µM; IC50 (DRB1*08:02): 0.389 µM; IC50 (DRB1*09:01): 0.105 µM; IC50 (DRB1*12:01): > 40 µM; IC50 (DRB1*13:02): 6.73 µM; IC50 (DRB3*02:02): 3.66 µM; IC50 (DRB4*01:01): 2.49 µM
CC[C@H](C)[C@H](NC(=O)[C@H](CCCNC(=N)N)NC(=O)[C@H](CCCNC(=N)N)NC(=O)[C@@H](NC(=O)[C@H](C)NC(=O)[C@H](CCCNC(=N)N)NC(=O)[C@H](CCCNC(=N)N)NC(=O)[C@H](Cc1ccc(O)cc1)NC(=O)[C@@H](N)Cc1ccc(O)cc1)[C@@H](C)O)C(=O)N[C@@H](CCCNC(=N)N)C(=O)NCC(=O)NCC(=O)N[C@@H](CC(=O)O)C(=O)NCC(=O)N[C@@H](CCCCN)C(=O)O [Ncl_P18],> 40,> 40,> 40,> 40,–
CC(C)C[C@H](NC(=O)[C@H](C)NC(=O)[C@@H](NC(=O)[C@H](Cc1ccccc1)NC(=O)[C@H](Cc1c[nH]c2ccccc12)NC(=O)[C@@H](N)CO)[C@@H](C)O)C(=O)N[C@H](C(=O)N[C@@H](CCC(N)=O)C(=O)N[C@@H](Cc1c[nH]cn1)C(=O)NCC(=O)N[C@@H](CCCCN)C(=O)N[C@@H](CCC(=O)O)C(=O)N[C@@H](CC(=O)O)C(=O)N[C@@H](CC(C)C)C(=O)N[C@@H](CCCCN)C(=O)O)[C@@H](C)O [Ncl_11],30.4,19.7,> 40,0.952,–
CSCC[C@H](NC(=O)[C@H](CCCCN)NC(=O)[C@H](CO)NC(=O)[C@H](CCC(=O)O)NC(=O)[C@H](CC(C)C)NC(=O)[C@H](CCC(N)=O)NC(=O)[C@H](CC(N)=O)NC(=O)[C@H](CC(C)C)NC(=O)[C@H](CCCNC(=N)N)NC(=O)[C@H](CC(=O)O)NC(=O)[C@H](CC(C)C)NC(=O)[C@H](CC(C)C)NC(=O)[C@H](CC(C)C)NC(=O)[C@@H](N)CC(C)C)C(=O)N[C@@H](CO)C(=O)O [Ncl_45],3.31,11.9,23.1,8.08,–
CC[C@H](C)[C@H](NC(=O)[C@H](Cc1c[nH]cn1)NC(=O)[C@H](CCCCN)NC(=O)[C@H](CC(N)=O)NC(=O)[C@H](CC(C)C)NC(=O)[C@H](CC(C)C)NC(=O)[C@@H](NC(=O)[C@@H](NC(=O)[C@H](CCC(N)=O)NC(=O)[C@H](CC(=O)O)NC(=O)[C@H](CCCCN)NC(=O)[C@@H](N)Cc1ccccc1)C(C)C)[C@@H](C)CC)C(=O)N[C@@H](CC(=O)O)C(=O)N[C@@H](C)C(=O)N[C@@H](Cc1ccc(O)cc1)C(=O)O [Ncl_70],30.7,9.18,6.01,8.6,–
CC[C@H](C)[C@H](NC(=O)CNC(=O)[C@H](CC(=O)O)NC(=O)[C@H](CCCCN)NC(=O)[C@H](CC(N)=O)NC(=O)[C@H](C)NC(=O)CNC(=O)[C@H](Cc1ccc(O)cc1)NC(=O)[C@@H]1CCCN1C(=O)[C@@H](N)CC(C)C)C(=O)N[C@H](C(=O)N[C@@H](Cc1c[nH]c2ccccc12)C(=O)N[C@H](C(=O)N[C@@H](C)C(=O)N[C@H](C(=O)O)[C@@H](C)O)C(C)C)[C@@H](C)CC [Ncl_25],11.7,3.8,> 40,0.203,–

# Like-named read-outs stand apart in the source and are kept apart here.
